Assay results from ChEMBL document CHEMBL1149314, “Synthesis of AZT 5'-triphosphate mimics and their inhibitory effects on HIV-1 reverse transcriptase” (J Med Chem, 2004).

The compounds below were run on Human immunodeficiency virus 1 (assay: Inhibition of HIV1 reverse transcriptase relative to AZT triphosphate). Conditions: concentration not given here.

Compound | inhibition
CNP(=O)(O)C(F)(F)P(=O)(O)OP(=O)(O)OC[C@@H]1O[C@H](n2cc(C)c(=O)[nH]c2=O)C[C@H]1N=[N+]=[N-] | 14.8%
Cc1cn([C@@H]2C[C@@H](N=[N+]=[N-])[C@H](COP(=O)(O)OP(=O)(O)C(F)(F)P(N)(=O)O)O2)c(=O)[nH]c1=O | 5.56%
Cc1cn([C@@H]2C[C@@H](N=[N+]=[N-])[C@H](COP(=O)(O)OP(=O)(O)C(F)(F)P(=O)(O)O)O2)c(=O)[nH]c1=O | 4.88%
BP(=O)(OC[C@@H]1O[C@H](n2cc(C)c(=O)[nH]c2=O)C[C@H]1N=[N+]=[N-])OP(=O)(O)C(F)(F)P(=O)(O)O (some centres not stated) | 1.1%
Cc1cn([C@@H]2C[C@@H](N=[N+]=[N-])[C@H](COP(=O)(O)OP(=O)(O)C(F)(F)P(=O)(O)Nc3ccccc3)O2)c(=O)[nH]c1=O | 30.2%
BP(=O)(OC[C@@H]1O[C@H](n2cc(C)c(=O)[nH]c2=O)C[C@H]1N=[N+]=[N-])OP(=O)(O)OP(=O)(O)O (some centres not stated) | 1.1%
BP(=O)(OC[C@@H]1O[C@H](n2cc(C)c(=O)[nH]c2=O)C[C@H]1N=[N+]=[N-])OP(=O)(O)C(Cl)(Cl)P(=O)(O)O (some centres not stated) | 8.8% and 11%
CCNP(=O)(O)C(F)(F)P(=O)(O)OP(=O)(O)OC[C@@H]1O[C@H](n2cc(C)c(=O)[nH]c2=O)C[C@H]1N=[N+]=[N-] | 49.4%
Cc1cn([C@@H]2C[C@@H](N=[N+]=[N-])[C@H](COP(=O)(O)OP(=O)(O)C(F)(F)P(=O)(O)F)O2)c(=O)[nH]c1=O | 18.8%
BP(=O)(OC[C@@H]1O[C@H](n2cc(C)c(=O)[nH]c2=O)C[C@H]1N=[N+]=[N-])OP(=O)(O)C(F)P(=O)(O)O (some centres not stated) | 3.2%
Cc1cn([C@@H]2C[C@@H](N=[N+]=[N-])[C@H](COP(=O)(O)OP(=O)(O)C(F)(F)P(=O)(O)Oc3ccccc3)O2)c(=O)[nH]c1=O | 36.1%
COP(=O)(O)C(F)(F)P(=O)(O)OP(=O)(O)OC[C@@H]1O[C@H](n2cc(C)c(=O)[nH]c2=O)C[C@H]1N=[N+]=[N-] | 71.1%

Where “and” joins values, the source holds several entries; their conditions need not be identical. Equal values may be shown once.
